The nature of this data set: in vitro. Particulars: human, microsomes.

The structures appear in SMILES notation.

The results in this text go back to ChEMBL document CHEMBL4831515 (J Med Chem, 2021).

As to `Cc1cc(C#N)cc(C)c1Oc1nc(NC2CCN(Cc3ccc(S(N)(=O)=O)cc3)CC2)nc2ccsc12`, the half-life – broadly, the time needed for the level to fall by half in the phase considered – at 2 h amounted to 2.4 min.
